Tested on: forskolin evoked cAMP production in HEK293 cells lacking Sm.5HTRL
Assay: counter-screen of antagonist hits: forskolin evoked cAMP production in parental reporter line
Assay type: cell-based
Conditions: antagonist hit counter screen, forskolin 25 µM

| SMILES | (-) Sm.5HTR Forskolin response (% of DMSO) |
| --- | --- |
| C[C@@H]1CCOC(=O)/C=C/C=C\C(=O)O[C@@H]2C[C@H]3O[C@@H]4[C@@H]5OC5(C)CCC4(COC(=O)[C@H]1O)[C@]2(C)[C@@]31CO1 (some centres unmarked) | 1.137 % of DMSO |
| CC(=O)OC1C(=O)OCC23CCC4(C)OC4C2OC2CC(OC(=O)/C=C/C=C/C(=O)OCCC1C)C3(C)C21CO1 (centres unmarked) | 1.107 % of DMSO |
